Results from paper PMC8174488, “4-Arylthiosemicarbazide derivatives as a new class of tyrosinase inhibitors and anti-Toxoplasma gondii agents” (Journal of Enzyme Inhibition and Medicinal Chemistry, 2021).

test system: Toxoplasma gondii; experiment: not given; settings: ratio of CC50 to IC50; cited from earlier work

| SMILES | SR (selectivity ratio) |
| --- | --- |
| Nc1ccc(S(=O)(=O)Nc2ncccn2)cc1 [sulfadiazine] | < 0.92 |
| COc1cc(Cc2cnc(N)nc2N)cc(OC)c1OC [Trimethoprim (TRI), Trimethoprim, reference compound] | > 1.20 |

test system: T. gondii RH strain; experiment: Antiparasitic assay: T. gondii RH proliferation in Hs27 cells, [3H]uracil incorporation; type: cell-based, Toxoplasma gondii; settings: ratio of CC30 (L929) to IC50Tg

| SMILES | SR (selectivity ratio) |
| --- | --- |
| Cc1nc[nH]c1C(=O)NNC(=S)Nc1ccccc1Cl [Compound 3a] | 4.02 |
| COc1ccccc1NC(=S)NNC(=O)c1[nH]cnc1C [Compound 7a] | 4.17 |
| Cc1nc[nH]c1C(=O)NNC(=S)Nc1cccc([N+](=O)[O-])c1 [Compound 1a] | 9.56 |
| Cc1nc[nH]c1C(=O)NNC(=S)Nc1ccccc1Br [Compound 4a] | 7.43 |
| Cc1nc[nH]c1C(=O)NNC(=S)Nc1cccc(I)c1 [Compound 6a] | 8.31 |
| Cc1nc[nH]c1C(=O)NNC(=S)Nc1ccccc1I [Compound 5a] | 5.00 |
| Cc1nc[nH]c1C(=O)NNC(=S)Nc1cc(F)ccc1F [Compound 9a] | 2.95 |
| Cc1ccc(NC(=S)NNC(=O)c2[nH]cnc2C)cc1 [Compound 8a] | 1.82 |
| Cc1nc[nH]c1C(=O)NNC(=S)Nc1ccc([N+](=O)[O-])cc1 [Compound 2a] | 10.12 |
